Laboratory results as given in publication PMC7281614, “Induction of Antibacterial Metabolites by Co-Cultivation of Two Red-Sea-Sponge-Associated Actinomycetes Micromonospora sp. UR56 and Actinokinespora sp. EG49” (Marine Drugs, 2020).

Sequences of proteins named here, by UniProt entry; tags and fusion partners are left off.
UniProt P0A0K8, whole entry: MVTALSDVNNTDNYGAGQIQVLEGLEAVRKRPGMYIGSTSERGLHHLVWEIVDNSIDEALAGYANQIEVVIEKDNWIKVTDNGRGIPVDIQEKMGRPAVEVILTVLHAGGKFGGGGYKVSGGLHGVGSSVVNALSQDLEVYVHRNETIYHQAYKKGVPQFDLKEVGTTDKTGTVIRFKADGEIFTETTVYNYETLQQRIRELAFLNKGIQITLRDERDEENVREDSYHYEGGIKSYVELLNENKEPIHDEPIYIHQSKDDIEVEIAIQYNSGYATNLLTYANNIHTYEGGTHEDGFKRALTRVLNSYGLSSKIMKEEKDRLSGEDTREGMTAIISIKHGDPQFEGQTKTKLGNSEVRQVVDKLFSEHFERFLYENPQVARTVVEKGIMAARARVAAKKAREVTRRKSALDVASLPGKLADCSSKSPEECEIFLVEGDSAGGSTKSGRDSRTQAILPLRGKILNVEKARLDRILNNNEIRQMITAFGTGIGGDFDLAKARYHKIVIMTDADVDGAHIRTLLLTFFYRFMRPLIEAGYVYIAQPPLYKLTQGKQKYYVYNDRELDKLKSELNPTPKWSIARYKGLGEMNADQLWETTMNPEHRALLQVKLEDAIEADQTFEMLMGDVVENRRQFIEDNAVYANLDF
UniProt Q6GG09, whole entry: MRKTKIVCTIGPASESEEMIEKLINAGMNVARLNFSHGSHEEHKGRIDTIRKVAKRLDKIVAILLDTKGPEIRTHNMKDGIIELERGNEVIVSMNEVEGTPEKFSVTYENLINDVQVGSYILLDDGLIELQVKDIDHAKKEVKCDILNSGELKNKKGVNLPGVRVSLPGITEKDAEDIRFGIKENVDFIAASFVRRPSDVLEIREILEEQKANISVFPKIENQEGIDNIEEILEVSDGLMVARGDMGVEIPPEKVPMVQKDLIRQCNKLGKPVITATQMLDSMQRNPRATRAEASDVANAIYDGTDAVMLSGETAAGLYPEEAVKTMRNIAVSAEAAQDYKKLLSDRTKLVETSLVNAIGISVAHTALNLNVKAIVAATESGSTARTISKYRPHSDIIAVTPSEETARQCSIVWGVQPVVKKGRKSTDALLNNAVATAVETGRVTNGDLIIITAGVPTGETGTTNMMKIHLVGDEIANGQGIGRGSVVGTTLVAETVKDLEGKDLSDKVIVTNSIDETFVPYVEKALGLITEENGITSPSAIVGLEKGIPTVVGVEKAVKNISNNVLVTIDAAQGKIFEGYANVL
UniProt P20831, whole entry partner: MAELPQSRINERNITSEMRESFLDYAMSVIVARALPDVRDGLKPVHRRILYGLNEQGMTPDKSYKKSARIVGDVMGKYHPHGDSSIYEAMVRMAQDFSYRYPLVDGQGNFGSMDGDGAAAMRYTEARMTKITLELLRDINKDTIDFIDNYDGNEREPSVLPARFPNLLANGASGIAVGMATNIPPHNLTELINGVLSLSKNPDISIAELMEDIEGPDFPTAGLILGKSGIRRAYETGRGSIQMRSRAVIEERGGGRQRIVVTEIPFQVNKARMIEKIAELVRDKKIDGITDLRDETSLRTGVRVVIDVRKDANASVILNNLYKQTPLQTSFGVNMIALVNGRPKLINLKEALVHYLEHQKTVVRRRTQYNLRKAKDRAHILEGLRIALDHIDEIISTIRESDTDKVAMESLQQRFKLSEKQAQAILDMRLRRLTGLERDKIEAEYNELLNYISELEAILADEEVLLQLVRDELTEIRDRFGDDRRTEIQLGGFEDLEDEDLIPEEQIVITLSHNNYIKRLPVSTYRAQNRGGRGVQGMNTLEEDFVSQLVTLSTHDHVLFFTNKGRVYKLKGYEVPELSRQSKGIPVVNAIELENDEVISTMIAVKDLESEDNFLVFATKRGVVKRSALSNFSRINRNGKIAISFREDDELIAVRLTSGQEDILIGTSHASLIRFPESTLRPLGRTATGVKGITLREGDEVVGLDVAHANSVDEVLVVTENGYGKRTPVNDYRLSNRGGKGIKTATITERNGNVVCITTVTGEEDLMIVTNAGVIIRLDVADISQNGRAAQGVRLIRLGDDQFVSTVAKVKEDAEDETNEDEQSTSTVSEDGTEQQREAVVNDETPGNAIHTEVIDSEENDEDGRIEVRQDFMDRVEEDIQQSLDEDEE

Assays:
[1] = target: Staphylococcus DNA gyrase-B (Staphylococcus aureus, UniProt P0A0K8); test: In vitro enzyme assay, DNA gyrase-B ATPase (Inspiralis kit); format: biochemical; conditions: read-out: IC50 (µM) Gyr-B; IC50 ± SD
Description: DNA gyrase (type II topoisomerase) and topoisomerase IV (ParE) add negative supercoils into DNA using ATP hydrolysis as a source of energy. They are considered crucial bacterial enzymes that are absent in eukaryotes. DNA-gyrase-B- and ParE-inhibitory activities were evaluated using the Inspiralis assay kit (Inspiralis®, London, UK) on streptavidin-coated 96 well microtiter plates (Thermo Scientific, Hamburg, Germany), according to the manufacturer’s protocol. The assay detects the ability of the isolated compounds to prevent the ATPase activity of both gyrase-B and ParE subunits. On the other hand, pyruvate kinase (PK) has been discovered to be an important hub protein in the interactome of MRSA [52]. The PK-inhibitory activity of the isolated compounds was assessed according to a previously reported method.

[2] = target: Staphylococcus pyruvate kinase (PK) (Staphylococcus aureus, UniProt Q6GG09); test: In vitro enzyme assay, pyruvate kinase inhibition; conditions: read-out: IC50 (µM) PK; IC50 ± SD

Structure (SMILES): COC(=O)NCc1cc(-c2sc(-c3ccccc3)nc2N2CCC(O)CC2)[nH]n1
- IC50 [1]: 0.091 µM
- IC50 [2]: 0.24 µM

The match of structure and compound is tentative.
